Pooled drug test results. Numbers come from NIAID ChemDB, via PubChem.

Shared fields: tests on isolated targets; agent: HIV-1; protein: Integrase; method: strand transfer; read-out: IC50

Blank or dashed fields: not listed here.

compound | strain | result
O=C1C=CC(=O)c2c(O)ccc(O)c21 | - | 2.5 µM
N#C/C(=C\c1ccc(O)c(O)c1)C(=O)NCCCCCCNC(=O)/C(C#N)=C/c1ccc(O)c(O)c1 | - | 1.1 µM
Nc1nc2c(ncn2C2CC(O)C(COP(=O)(O)OC3CC(n4cnc5c(N)ncnc54)OC3COP(=O)(O)O)O2)c(=O)[nH]1 | - | 9 µM
COc1ccc(Cn2nnnc2C(=O)CC(=O)c2cc(OCc3ccccc3)cc(OCc3ccccc3)c2)cc1 | - | >365 µM
Nc1ccn(C2CC(O)C(COP(=O)(O)OC3CC(n4cnc5c(=O)[nH]c(N)nc54)OC3COP(=O)(O)O)O2)c(=O)n1 | - | 100 µM
O=C1c2ccc(O)c(O)c2C(=O)N1Cc1ccc(F)c(F)c1 | - | 0.4 µM
O=C(CC(=O)c1c[nH]c2ccccc12)c1nn[nH]n1 | - | >784 µM
Cc1cn(C2CC(O)C(COP(=O)(O)OC3CC(n4cc(C)c(=O)[nH]c4=O)OC3COP(=O)(O)OC3CC(n4ccc(N)nc4=O)OC3COP(=O)(O)O)O2)c(=O)[nH]c1=O | - | 13 µM
O=C1Sc2ccc(Cl)cc2C(=O)N2CS(=O)CC12 | RF | 240 µM
O=C1C(=O)c2ccccc2C(O)=C1C(CCc1ccccc1)C1=C(O)c2ccccc2C(=O)C1=O | - | 72 µM
O=C=Nc1cccc(S(=O)(=O)c2cccc(N=C=O)c2)c1 | - | 90 µM
O=C1c2ccc(O)c(O)c2C(=O)N1Cc1cccc(Br)c1 | - | 0.44 µM
Nc1cc(S(=O)(=O)c2ccc(O)c(N)c2)ccc1O | - | 4.9 µM
O=C(/C=C(\O)c1ccccc1)c1ncn[nH]1 | - | 43 µM
CC(C)=CCC[C@H](C)[C@H]1CC[C@]2(C)C[C@H]3[C@@H](C(=O)C[C@@]3(C)O)C(C=O)=C[C@@H]12 | - | >120 µM
CCOC(=O)CC(=O)c1cccn1Cc1ccc(F)cc1 | - | >100 µM
COc1ccc(CN=[N+]=[N-])cc1C(=O)CC(=O)C(=O)O | - | 18–24 µM
CC(C)=C/C=C\[C@H](C)[C@H]1CC[C@]2(C)C[C@H]3[C@H](C(=O)C[C@@]3(C)O)C(C=O)=C[C@@H]12 | - | >120 µM
O=C(c1ccc(O)cc1O)C1C(c2ccc(O)cc2)OC(c2ccc(O)cc2)C1C(=O)c1ccc(O)cc1O | - | 31.7–93.4 µM
O=C(O)c1ccc(NCc2cc(O)ccc2O)cc1 | - | 10–100 µM
CC(C)OC(=O)C(=O)CC(=O)c1cccn1Cc1ccc(F)cc1 | - | >100 µM
CCCCCCc1cc2c(O)c(C(c3ccccc3)c3c(O)c4cc(CCCCCC)c(O)cc4oc3=O)c(=O)oc2cc1O | - | 12 µM
N#C/C(=C\c1ccc(O)c(O)c1)C(=O)NCCCCCCCCNC(=O)/C(C#N)=C/c1ccc(O)c(O)c1 | - | 5–10 µM
O=C1c2ccc(O)c(O)c2C(=O)N1Cc1cccc(CO)c1 | - | 2.1 µM
N#C/C(=C\c1ccc(O)c(O)c1)C(=O)NCCCc1ccccc1 | - | 10–100 µM
COc1cc(/C=C/c2ccc3ccc(C(=O)O)c(O)c3n2)cc(O)c1O | - | 1.7 µM
CC(=O)c1cccn1Cc1ccc(F)cc1 | - | >100 µM
CS(=O)(=O)CS(=O)(=O)Nc1ccccc1CN1Cc2ccc(O)c(O)c2C1=O | - | 32.6 µM
CN(C)S(=O)(=O)N(C)C1CCn2c1nc(C(=O)NCc1ccc(F)cc1)c(O)c2=O | - | 0.005 µM
O=[N+]([O-])c1cc(S(=O)(=O)c2ccc(F)c([N+](=O)[O-])c2)ccc1F | - | 40 µM
CN(C)[C@@H]1C(=O)C(C(=O)NCNc2nc3n[nH]nc3c(=O)[nH]2)=C(O)[C@@]2(O)C(=O)C3=C(O)c4c(O)cccc4[C@@](C)(O)[C@H]3C[C@@H]12 | RF | 0.3 µM
COC(=O)/C=C/c1ccccc1 | - | >100 µM
C/C=C/C=C/[C@@H]1C=C[C@@H]2C[C@H](C)CC[C@H]2[C@]1(C)/C(O)=C1/C(=O)[C@H](CO)N(C)C1=O | - | 11 µM
CN(C)C1C(=O)C(C(=O)NCNC(CO)(CO)CO)=C(O)C2(O)C(=O)C3=C(O)c4c(O)cccc4C(C)(O)C3CC12 | RF | 1.6 µM
C/C(=N\NC(=O)c1ccccc1O)c1cccc(/C(C)=N/NC(=O)c2ccccc2O)n1 | - | 16.3–20 µM
CC1(C)OC(=O)C2(C(=O)O1)[C@@H](c1ccco1)CC(=O)C[C@H]2c1ccco1 | - | 17.6 µM
O=C(/C=C/c1ccc(O)c2c1[C@H](C(=O)O[C@H](Cc1ccc(O)c(O)c1)C(=O)O)[C@@H](c1ccc(O)c(O)c1)O2)O[C@H](Cc1ccc(O)c(O)c1)C(=O)O | - | 0.37 µM
O=C1c2c(ccc(O)c2O)CN1Cc1ccc(F)cc1 | - | 10 µM
Cc1cc(S(=O)(=O)Nc2nc3cscc3c(=O)[nH]2)c(SCc2ccccc2)cc1Cl | - | 55 µM
C[C@@H]1[C@@H](O)[C@H](C)C[C@@H]2C=C[C@H](C)[C@H](/C=C/C=C/C(=O)O)[C@@H]12 | - | 25 µM
O=S(=O)(SC(Cl)(Cl)Cl)c1cccc(S(=O)(=O)c2cccc(S(=O)(=O)SC(Cl)(Cl)Cl)c2)c1 | - | 21.3 µM
COc1cc(/C=C/c2ccc(OC)c(OC)c2)oc(=O)c1 | - | >100 µM
O=C(/C=C/c1ccc(O)c(O)c1)O[C@@H]1CC(O)(C(=O)O)C[C@@H](OC(=O)/C=C/c2ccc(O)c(O)c2)C1O | LAI | 0.34 ± 0.22 µg/mL
CCNc1[nH]c(=O)n(O)c(=O)c1C(=O)NCc1cccc(F)c1 | IIIB | 10 µM
COc1cccc2c1C(=O)c1c(O)c3c(c(O)c1C2=O)C[C@@](O)(C(=O)CO)C[C@@H]3OC1CC(N2CCOCC2)C(O)[C@H](C)O1 | RF | 1.5 µM
Nc1ccn(C2CC(O)C(COP(=O)(O)OC3CC(n4ccc(N)nc4=O)OC3COP(=O)(O)O)O2)c(=O)n1 | - | 12 µM
O=[N+]([O-])c1ccc(S(=O)(=O)c2ccc([N+](=O)[O-])cc2C(F)(F)F)c(C(F)(F)F)c1 | - | >100 µM
O=c1oc2ccccc2c(O)c1C(c1ccc(N(CCCl)CCCl)c([N+](=O)[O-])c1)c1c(O)c2ccccc2oc1=O | - | 4 µM
O=C(NCc1ccc(F)cc1)c1nc(N2CCCCS2(=O)=O)c2cccnc2c1O | - | 0.015 µM
CC(C)=CCC[C@H](C)[C@@]1(O)CC[C@]2(C)C[C@H]3[C@H](C(=O)C[C@@]3(C)O)C(C=O)=C[C@H]21 | - | 125 µM
O=C(/C=C/c1ccc(O)c(O)c1)O[C@@H]1C[C@](OC(=O)/C=C/c2ccc(O)c(O)c2)(C(=O)O)C[C@@H](O)[C@H]1O | LAI | 0.56 ± 0.14 µg/mL
O=NNc1ccc(S(=O)(=O)c2ccc(NN=O)cc2)cc1 | - | 6.1 µM
O=C1C(=O)c2ccccc2C(O)=C1CSc1ccc(Cl)cc1 | - | >100 µM
CN1C[C@@H](O)C(C)(C)Cn2c(c3c(c(O)c2=O)C(=O)N(Cc2ccc(F)c(Cl)c2)CC3)C1=O | - | 0.003 µM
O=C1c2c(ccc(O)c2O)CN1Cc1ccccc1F | - | 34.59 µM
Cc1cc(Cc2cc(C)c(O)c(C(=O)O)c2)cc(C(=O)O)c1O | - | 0.9–1.1 µM
CN(C)C1C(=O)C(C(=O)NCNCCCO)=C(O)C2(O)C(=O)C3=C(O)c4c(O)cccc4C(C)(O)C3CC12 | RF | 3.6 µM
O=C(O)c1ccc(S(=O)(=O)c2ccc(C(=O)O)c(C(=O)O)c2)cc1C(=O)O | - | 29.5 µM
O=C(/C=C/c1ccc(O)c(O)c1)O[C@@H]1CC(O)(C(=O)O)C[C@@H](OC(=O)/C=C/c2ccc(O)c(O)c2)C1O | - | 0.34 µg/mL
O=[N+]([O-])c1cc(S(=O)(=O)c2ccc(O)c([N+](=O)[O-])c2)ccc1O | - | >100 µM
CC(C)=C/C=C\[C@H](C)[C@H]1CC[C@]2(C)C[C@H]3[C@@H]4C(=C[C@@H]12)COC4(O)C[C@@]3(C)O | - | >120 µM
Cc1[nH]cnc1C(=O)NNC1=Nc2ccc(Br)cc2C(c2ccccc2Cl)=NC1 | - | 5 µM
CCCCCCCCCc1cc(OC(=O)c2c(CCCCCCCCC)cc(O)cc2O[C@@H]2O[C@H](CO)[C@@H](O)[C@H](O)[C@H]2O)cc(O)c1C(=O)O | - | 68 µM
O=C1c2c(ccc(O)c2O)CN1Cc1cccc(Br)c1 | - | 3.3 µM
[N-]=[N+]=Nc1cn([C@H]2C[C@H](N=[N+]=[N-])[C@@H](COP(=O)(O)O)O2)c(=O)[nH]c1=O | - | 50 µM
COc1cccc2c1C(=O)c1c(O)c3c(c(O)c1C2=O)C[C@@](O)(C(=O)CO)C[C@@H]3O[C@H]1C[C@H](N(C)C)[C@H](O)[C@H](C)O1 | RF | 4.1 µM
O=c1oc2ccccc2c(O)c1C(c1ccc(C(c2c(O)c3ccccc3oc2=O)c2c(O)c3ccccc3oc2=O)cc1)c1c(O)c2ccccc2oc1=O | - | 0.4 µM
O=[N+]([O-])c1cc(S(=O)(=O)c2ccc(S)c([N+](=O)[O-])c2)ccc1S | - | 2.5 µM
CN/N=C(/c1nc2ccc([N+](=O)[O-])cc2[nH]c1=O)C(O)c1ccc(C(O)/C(=N/NC)c2nc3ccc([N+](=O)[O-])cc3[nH]c2=O)cc1 | RF | >160 µM

Rows are shuffled and stem from different studies. ICn: concentration for n% inhibition. a–b is a range or a potency band.